From ChEMBL document CHEMBL5614404, “Optimization of potent, broad-spectrum, and specific anti-influenza compounds targeting RNA polymerase PA-PB1 heterodimerization” (Eur J Med Chem, 2024)

The chains behind the UniProt entries cited, without tags or fusion partners. Where a name states a change or a piece, a line headed by the entry shows the natural chain unless it says otherwise.
UniProt P03428: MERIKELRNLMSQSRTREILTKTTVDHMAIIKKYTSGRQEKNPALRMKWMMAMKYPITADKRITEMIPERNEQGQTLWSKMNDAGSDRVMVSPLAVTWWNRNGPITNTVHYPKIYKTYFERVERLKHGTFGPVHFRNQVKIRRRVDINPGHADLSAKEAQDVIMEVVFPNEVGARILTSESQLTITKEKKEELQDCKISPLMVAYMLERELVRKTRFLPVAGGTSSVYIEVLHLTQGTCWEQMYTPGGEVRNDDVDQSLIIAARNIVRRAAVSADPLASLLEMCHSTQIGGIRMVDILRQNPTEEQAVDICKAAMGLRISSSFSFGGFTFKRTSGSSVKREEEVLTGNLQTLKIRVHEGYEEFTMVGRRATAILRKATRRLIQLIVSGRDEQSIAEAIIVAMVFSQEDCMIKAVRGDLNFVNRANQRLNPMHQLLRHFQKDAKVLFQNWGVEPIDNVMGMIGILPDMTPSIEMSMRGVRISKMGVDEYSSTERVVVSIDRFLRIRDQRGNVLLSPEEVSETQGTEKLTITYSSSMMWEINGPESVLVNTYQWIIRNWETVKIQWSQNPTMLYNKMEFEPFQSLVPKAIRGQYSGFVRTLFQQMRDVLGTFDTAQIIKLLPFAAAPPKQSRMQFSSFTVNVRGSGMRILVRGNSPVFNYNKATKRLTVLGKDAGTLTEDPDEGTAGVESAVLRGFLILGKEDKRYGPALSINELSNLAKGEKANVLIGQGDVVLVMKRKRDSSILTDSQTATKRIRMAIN
UniProt P03431: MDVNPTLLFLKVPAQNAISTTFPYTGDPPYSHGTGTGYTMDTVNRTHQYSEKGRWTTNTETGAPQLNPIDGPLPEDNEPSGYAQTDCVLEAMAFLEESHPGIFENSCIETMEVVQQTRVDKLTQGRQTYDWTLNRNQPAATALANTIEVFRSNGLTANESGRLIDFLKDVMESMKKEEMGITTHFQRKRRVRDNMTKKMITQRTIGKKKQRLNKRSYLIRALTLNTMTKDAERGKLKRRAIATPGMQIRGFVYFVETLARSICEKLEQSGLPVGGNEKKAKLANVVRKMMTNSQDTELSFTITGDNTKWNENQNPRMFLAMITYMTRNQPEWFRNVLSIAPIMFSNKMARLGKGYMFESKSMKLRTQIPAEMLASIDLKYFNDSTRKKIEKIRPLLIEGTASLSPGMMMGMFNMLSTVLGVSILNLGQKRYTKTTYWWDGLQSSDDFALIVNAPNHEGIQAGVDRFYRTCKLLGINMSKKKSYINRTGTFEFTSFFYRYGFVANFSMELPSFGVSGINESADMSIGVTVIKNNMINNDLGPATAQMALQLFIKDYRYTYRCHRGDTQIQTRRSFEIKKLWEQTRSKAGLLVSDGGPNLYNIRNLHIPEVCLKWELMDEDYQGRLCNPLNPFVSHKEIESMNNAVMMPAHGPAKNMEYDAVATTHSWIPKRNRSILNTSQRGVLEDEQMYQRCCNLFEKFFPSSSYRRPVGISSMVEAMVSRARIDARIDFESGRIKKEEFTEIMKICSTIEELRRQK

Target: RNA-directed RNA polymerase (Influenza A virus (strain A/Puerto Rico/8/1934 H1N1), UniProt P03428+P03431+P03433)
Experiment: Inhibition of Influenza A virus RdRp transfected in HEK293T cells co-expressing PA/PB1/PB2/NP/firefly luciferase/Renilla luciferase assessed as impaired nuclear import preincubated for 4 hrs followed by medium replacement with compound measured after 20 hrs by minireplicon assay
Type: cell-based

For `NC(=O)c1nc(F)c[nH]c1=O`, the EC50 was 10.7 µM.
